Common to all, as to experiment: pseudovirus neutralization IC50; higher = weaker neutralization
The target in experiment [1] is SARS-CoV-2 Omicron BA.1 spike pseudovirus. The protocol:
(§1)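 Single-round VSV luciferase pseudovirus mixed with antibody dilutions for 1 h and put on Huh-7 cells for about a day; IC50 from the dose curve.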

The target of experiment [2] is SARS-CoV-2 Omicron BA.2 spike pseudovirus. Here is the method:
as §1

The target in experiment [3] is SARS-CoV-2 Omicron BA.2.75 spike pseudovirus. The protocol:
as §1

The target in experiment [4] is SARS-CoV-2 Omicron BA.5 spike pseudovirus. The protocol:
as §1

The target of experiment [5] is SARS-CoV-2 Omicron BQ.1.1 spike pseudovirus. The protocol:
as §1

Experiment [6] deals with SARS-CoV-2 Omicron XBB spike pseudovirus. The protocol: as §1
Experiment [7] addresses SARS-CoV-2 early D614G spike pseudovirus. Here is the method:
as §1

Substitutions are numbered along the chain they refer to. Human monoclonal antibodies against the spike receptor-binding domain (heavy:light variable regions). IC50 against pseudoviruses bearing the spike of naturally observed variants; lower = stronger; >10 µg/ml means not reached at the top dose. No active / inactive call. The stated detection limit is 0.0005 µg/ml; values near or below 0.001 µg/ml lie at the floor of the assay.

B1: BD56-579 (protein)
chain 1: QVRLQESGPKVVKPSGTLSLTCTVSGGSVTDYYWSWIRQPPGKGLEWVGYLYYSGSTNYNPSLKSRVTISLDTSKNQFSLRLSSVTAADTAVYYCARDEPIGYCYGDSCGSAYDLWGQGTKVTVSS
chain 2: DIQMTQSPSTLSASVGDRVTITCRASQSISSWLAWYQQKPGKAPKLLIYKASSLQSGVPSRFSGSGSGTEFTLTISSLQPDDFATYHCQQYSSYSTFGQGTKVEIK
As for B1, the “pseudovirus neutralization IC50” value in experiment [1] was 0.0354 µg/mL; in experiment [2], 0.0254 µg/mL; in experiment [3] it was 0.0326 µg/mL; in experiment [4] it was 0.0254 µg/mL; in experiment [5], over 10 µg/mL; in experiment [6], over 10 µg/mL. In addition, in experiment [7], the “pseudovirus neutralization IC50” value stood at 0.182 µg/mL.

B2: DH1063 (protein)
chain 1: QVQLVESGGGVVQPGRSLRLSCAASGFSFNNYGFHWVRQAPGKGLEWLTSIWHDGSREFYADSVKGRFTISRDNPQNTMYLQMNSLRAEDTALYFCARDVAHCTTVGCHGNWFDTWGQGTLVTVSS
chain 2: EIVLTQSPATLSLSPGDRATLSCRSSQTVDIYVGWYQQKPGQPPRLLIYDASNRAPGVPARFSGSGSGTDFTLTISSLEPEDFAVYFCQQRKSWPPLTFGGGTKVEMK
On to B2, for which the “pseudovirus neutralization IC50” value in experiment [1], in experiment [2], in experiment [3], in experiment [4], in experiment [5] and in experiment [6] was over 10 µg/mL throughout. In addition, the “pseudovirus neutralization IC50” value in experiment [7] is over 10 µg/mL.

B3: DH1130 (protein)
chain 1: EVQLVESGGDLVQPGGSLRLSCAASGFTFTTYAMTWVRQAPGKGLEWVSTISTTGGDTYYADSVKGRFTISRDNSRNTLNLQMNSLRAEDTAVYSCARHNELDHWGQGTLVIVSS
chain 2: EIVLTQSPDFQSVSPKEKVTITCRASQSIGSSLHWYQQKPDQSPKLLIKYASQSLSGVPSRFSGSGSGTDFTLTINSLEVEDGATYYCHQSSSFPRTFGQGTKVEIK
Turning to B3, the “pseudovirus neutralization IC50” value in experiment [1], in experiment [2], in experiment [3], in experiment [4], in experiment [5] and in experiment [6] was over 10 µg/mL in each case. The “pseudovirus neutralization IC50” value in experiment [7] was over 10 µg/mL.

B4: BD56-574 (protein)
chain 1: QVQLQESGPALVKPSQTLSLTCTVSRGSIISGGFYWSWIRQHSGKGLEWIGHINYSGTTYYNPSLKSRLNILVDTSKNQFSLNLSSVTAADTAVYYCARVESGAYPPWFDPWGQGILVTVSS
chain 2: SYVLTQPPSVSAAPGKTASMTCGGNNIGSKSVHWYQQKPGQAPALVIYYDSARPSGIPERFSGSNSGNTATLTISRVEAGDEADYYCQVWDSSGDHPVFGGGTKLTVL
As for B4, the “pseudovirus neutralization IC50” value was 0.0729 µg/mL in experiment [1]; 0.114 µg/mL in experiment [2]; 0.1 µg/mL in experiment [3]; 0.218 µg/mL in experiment [4]; over 10 µg/mL in experiment [5]; over 10 µg/mL in experiment [6]. Further, the “pseudovirus neutralization IC50” value in experiment [7] came out at 0.0535 µg/mL.

B5: BD56-571 (protein)
chain 1: EVQLVESGGGLVQPGGSLRLSCAASGFTFSSYDMHWVRQVTGKGLEWVAVIGTAADTYYPDSVKGRFTISRENAKNSLYLQMNSLRAGDTGIYYCARGNFDSSGFYGYFDFWGQGALVSVSS
chain 2: DIQMTQSPSSLSASVGDRVAITCRASQRISSYLNWYQQKPGKAPKLLIYAASSLQSGVPSRFSGSGSGTDFTLTISSLQPEDFATYYCQQSYTMPPYTFGQGTKLEIK
For the molecule B5, the “pseudovirus neutralization IC50” value was over 10 µg/mL in experiment [1]; 5.27 µg/mL in experiment [2]; over 10 µg/mL in experiment [3]; 6.85 µg/mL in experiment [4]; 7.79 µg/mL in experiment [5]; 9.1 µg/mL in experiment [6]. In addition, in experiment [7], the “pseudovirus neutralization IC50” value came out at 5.29 µg/mL.

B6: BD56-596 (protein)
chain 1: QVHLVQSGAEVKKPGSSVKVSCKASGGTFSSYAINWVRQAPGQGLEWMGGIIPIFGTTNYAQKFQGRVTITADEFTSTAYMELSSLRSEDTAIYYCARDFEVSPLYGMDVWGQGTTVTVSS
chain 2: B5 chain 2 with I2T, R18S, A20T, R28S, Q55D, T93S, M94S, Y97I, K104R
Turning to B6, the “pseudovirus neutralization IC50” value is 0.279 µg/mL in experiment [1]; 0.226 µg/mL in experiment [2]; 0.232 µg/mL in experiment [3]; over 10 µg/mL in experiment [4]; over 10 µg/mL in experiment [5]; over 10 µg/mL in experiment [6]. Besides, the “pseudovirus neutralization IC50” value in experiment [7] was 0.205 µg/mL.

B7: BD56-586 (protein)
chain 1: VQLVESGGGLVQPGGSLRLSCAASGLPFSNDDMHWVRQVAGKGLEWVSGIGTTRDTYYADSVKGRFTISRDNAKNSLSLHMNSLRVEDTAMYYCARGNSYFDGSGYLFDLWGQGTLVTVSS
chain 2: DIQMTQSPSSLSAFVGDRVTIACRASQSIRRFLNWYQQKAGKAPKLLIYGASSLQNGVPTRFSGSGSGTDFTLTISSLQPEDFATYYCQQSYSMPPWTFGQGTKVEIK
For B7, the “pseudovirus neutralization IC50” value in experiment [1] was 6.07 µg/mL; in experiment [2], 7.56 µg/mL; in experiment [3] it was 2.83 µg/mL; in experiment [4] it was 3.86 µg/mL; in experiment [5], 4.49 µg/mL; in experiment [6], 4.13 µg/mL. The “pseudovirus neutralization IC50” value in experiment [7] amounted to 2.69 µg/mL.

Source of the values: the supplement of paper PMC9931576.
